PubChem BioAssay AID1259414 – Drosophila RNAi Screening Center, 2018
Purpose: 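Host factors increasing or decreasing Wolbachia levels in cultured fly cells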 (primary screen). Cells: Drosophila JW18 cells infected with Wolbachia. Reagents: long dsRNA against Drosophila genes, 0.25 µg dsRNA per well of a 384-well plate. Duration: 5 days. Conditions: cells persistently infected with Wolbachia before knock-down; no added drug. Read-out: 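Automated imaging of bacterial rRNA staining divided by host cell count, reported as plate-normalised robust z-score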. Reading the numbers: Wolbachia per cell robust z: higher = more Wolbachia per host cell than the plate typical. Active means: 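Active if absolute robust z reaches 1.5 in two or more of three replicates, leaving out multi- or no-target dsRNAs, genes unexpressed in JW18 and A1 wells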.
The screen tested about 24,000 reagents; this is an unselected part of those with a known target gene and a result. Of all reagents, about 1,210 (5%) are marked active. 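Inactive calls also include excluded dsRNAs with several or no targets, genes unexpressed in JW18, and well A1, regardless of score.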 A number with no mark means an inactive call.

Knock-down of CG17681 [DRSC02632] resulted in: Wolbachia per cell robust z, rep 1 = -0.581; Wolbachia per cell robust z, rep 2 = 0.68; Wolbachia per cell robust z, rep 3 = -0.0889.
pav [DRSC08730] gave Wolbachia per cell robust z, rep 1 = 0.97; Wolbachia per cell robust z, rep 2 = 0.757; Wolbachia per cell robust z, rep 3 = 1.37.
pav [DRSC25088] gave Wolbachia per cell robust z, rep 1 = 3.7 (active); Wolbachia per cell robust z, rep 2 = 4.76; Wolbachia per cell robust z, rep 3 = 5.12.
CG13813 [DRSC10068] scored Wolbachia per cell robust z, rep 1 = 0.05; Wolbachia per cell robust z, rep 2 = -0.292; Wolbachia per cell robust z, rep 3 = 0.488.
Silencing of Amph [DRSC07578] came out at: Wolbachia per cell robust z, rep 1 = 0.477 (active); Wolbachia per cell robust z, rep 2 = -6.7; Wolbachia per cell robust z, rep 3 = -3.81.
With knock-down of Amph [DRSC41537], the screen gave Wolbachia per cell robust z, rep 1 = -0.508; Wolbachia per cell robust z, rep 2 = 0.361; Wolbachia per cell robust z, rep 3 = 0.787.
Depletion of uno [DRSC07244] resulted in: Wolbachia per cell robust z, rep 1 = 0.808; Wolbachia per cell robust z, rep 2 = 1.47; Wolbachia per cell robust z, rep 3 = 0.783.
uno [DRSC28407] scored Wolbachia per cell robust z, rep 1 = -0.423; Wolbachia per cell robust z, rep 2 = -0.293; Wolbachia per cell robust z, rep 3 = 0.311.

Entries listed above marked active:
pav [DRSC25088]: Wolbachia per cell robust z, rep 1 = 3.7 (active); Wolbachia per cell robust z, rep 2 = 4.76; Wolbachia per cell robust z, rep 3 = 5.12
Amph [DRSC07578]: Wolbachia per cell robust z, rep 1 = 0.477 (active); Wolbachia per cell robust z, rep 2 = -6.7; Wolbachia per cell robust z, rep 3 = -3.81

Further reagents:
RN-tre [DRSC07521] showed Wolbachia per cell robust z, rep 1 = -0.445; Wolbachia per cell robust z, rep 2 = -0.729; Wolbachia per cell robust z, rep 3 = 0.19.
RN-tre [DRSC28214] scored Wolbachia per cell robust z, rep 1 = 0.363; Wolbachia per cell robust z, rep 2 = -0.249; Wolbachia per cell robust z, rep 3 = -0.348.
With knock-down of CG10163 [DRSC09710], the record shows Wolbachia per cell robust z, rep 1 = 1.08; Wolbachia per cell robust z, rep 2 = 0.497; Wolbachia per cell robust z, rep 3 = 0.393.
After knock-down of dbo [DRSC11339], the record shows Wolbachia per cell robust z, rep 1 = -1.51; Wolbachia per cell robust z, rep 2 = -0.156; Wolbachia per cell robust z, rep 3 = 0.99.
CG15269 [DRSC01942] scored Wolbachia per cell robust z, rep 1 = 0.538; Wolbachia per cell robust z, rep 2 = 0.692; Wolbachia per cell robust z, rep 3 = 1.56.
CG15269 [DRSC24737] showed Wolbachia per cell robust z, rep 1 = -0.158; Wolbachia per cell robust z, rep 2 = 0.13; Wolbachia per cell robust z, rep 3 = -0.329.
Eo [DRSC20187] gave Wolbachia per cell robust z, rep 1 = 0.259; Wolbachia per cell robust z, rep 2 = -0.336; Wolbachia per cell robust z, rep 3 = -0.343.
With knock-down of Eo [DRSC26129] the results were Wolbachia per cell robust z, rep 1 = 0.172; Wolbachia per cell robust z, rep 2 = 0.841; Wolbachia per cell robust z, rep 3 = -0.217.
Silencing of Lpt [DRSC04291] came out at: Wolbachia per cell robust z, rep 1 = 0.579; Wolbachia per cell robust z, rep 2 = 0.614; Wolbachia per cell robust z, rep 3 = 0.513.
With knock-down of Lpt [DRSC04515], the record shows Wolbachia per cell robust z, rep 1 = 1.02; Wolbachia per cell robust z, rep 2 = 0.0138; Wolbachia per cell robust z, rep 3 = 0.769.
After knock-down of CG2772 [DRSC00530], the record shows Wolbachia per cell robust z, rep 1 = 0.0166; Wolbachia per cell robust z, rep 2 = -0.388; Wolbachia per cell robust z, rep 3 = -0.329.
CG2772 [DRSC27114] scored Wolbachia per cell robust z, rep 1 = -0.437; Wolbachia per cell robust z, rep 2 = -6.77; Wolbachia per cell robust z, rep 3 = -1.1.
With knock-down of Atg7 [DRSC05741] the results were Wolbachia per cell robust z, rep 1 = 0.858; Wolbachia per cell robust z, rep 2 = 0.907; Wolbachia per cell robust z, rep 3 = 0.696.
Atg7 [DRSC06937] showed Wolbachia per cell robust z, rep 1 = 1.11; Wolbachia per cell robust z, rep 2 = -1.63; Wolbachia per cell robust z, rep 3 = 0.00493.
CG17191 [DRSC15185] gave Wolbachia per cell robust z, rep 1 = -4.67; Wolbachia per cell robust z, rep 2 = 0.43; Wolbachia per cell robust z, rep 3 = 1.1.
Depletion of CG17191 [DRSC24134] came out at: Wolbachia per cell robust z, rep 1 = -0.975; Wolbachia per cell robust z, rep 2 = -1.37; Wolbachia per cell robust z, rep 3 = -0.367.
